Molecular target: T1, recombinant SARS-CoV-2 S1 D614G protein (Sino Biological Inc.) (SARS-CoV-2)
T1 construct: domain: S1
Assay: ELISA, scFv-hFc on coated protein (FIG. 14)

B1: E-3G9 scFv-hFc fusion protein (Fc fusion)
scFv: ELRMTQSPSSLSASVGDRVTIT[about 80 residues cut from this listing]FGQGTKLEIKGGSSRSSSSGGGGSGGGGQMQLVQSGAEVKKPGASVKVSCKASGHTITSYYMHWVRQAPGQGLEWMGIINPSGGSTSYAQKFQGRVTMTRDTSTSTVYMELSSLRSEDTAVYYCAREGVWDSSGYSSFDYWGQGTLVTVSS
binding result: binds

From patent US20210395346A1 (SEOUL NATIONAL UNIVERSITY R AND DB FOUNDATION, published 2021)
